Test results: the supplement of paper PMC9931576
Human monoclonal antibodies against the spike receptor-binding domain (heavy:light variable regions). IC50 against pseudoviruses bearing the spike of naturally observed variants; lower = stronger; >10 µg/ml means not reached at the top dose. No active / inactive call. The stated detection limit is 0.0005 µg/ml; values near or below 0.001 µg/ml lie at the floor of the assay.

What was measured:
Assay in all cases: pseudovirus neutralization IC50; higher = weaker neutralization
[1] = biological target: SARS-CoV-2 Omicron BA.1 spike pseudovirus
Method: (§1)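 Single-round VSV luciferase pseudovirus mixed with antibody dilutions for 1 h and put on Huh-7 cells for about a day; IC50 from the dose curve.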

[2] = biological target: SARS-CoV-2 Omicron BA.2 spike pseudovirus
Method: as §1

[3] = biological target: SARS-CoV-2 Omicron BA.2.75 spike pseudovirus
Method: as §1

[4] = biological target: SARS-CoV-2 Omicron BA.5 spike pseudovirus
Method: as §1

[5] = biological target: SARS-CoV-2 Omicron BQ.1.1 spike pseudovirus
Method: as §1

[6] = biological target: SARS-CoV-2 Omicron XBB spike pseudovirus
Method: as §1

[7] = biological target: SARS-CoV-2 early D614G spike pseudovirus
Method: as §1

Row | Binder | pseudovirus neutralization IC50 [1] [µg/mL] | pseudovirus neutralization IC50 [2] [µg/mL] | pseudovirus neutralization IC50 [3] [µg/mL] | pseudovirus neutralization IC50 [4] [µg/mL] | pseudovirus neutralization IC50 [5] [µg/mL] | pseudovirus neutralization IC50 [6] [µg/mL] | pseudovirus neutralization IC50 [7] [µg/mL]
1 | BD55-6281 (protein) chain 1: QEQLVQSGAEVKKPGASVKVSCKASGYTFTNYDINWVRQAAGQGLEWMGWMSPNSGDTGYAHKFQGRVTMTRDTSKSTAYMELSNLTFEDTAVYFCARKLGGQKYYYYYAVDVWGQGTAVAVSS chain 2: DIQMTQSPSSLSASVGDRVTITCRASQSISYYLNWYQQKPGKAPKLLIYAASSLHTGVPSRFSGSGSGTDFTLTISSLQPEDFATYYCQQSYSTPSTFGPGTKVEVK | > 10 | > 10 | > 10 | > 10 | > 10 | > 10 | > 10
2 | BD55-6283 (protein) chain 1: QVQLVQSGAEVRKPGSSVKVSCKTSGGTFSTSAIHWVRQAPGQGPEWMGGIVPMFRSVDYAQKFQGRVTISADESTRTVYMELRSLRSEDTAVYYCAKDYEDSREYSGYDWTVSTWFYPWGQGTLVTVSS chain 2: DIVMTQSPDSLAVSLGERATINCKSSRSVLYGSNNKNYLAWYQQRPGHPPKLLIYWASTRESGVPDRFSGSGSGTDFALTISSLQADDVAVYYCQQYYSPPPTFGQGTKLEIK | 2.42 | > 10 | > 10 | > 10 | > 10 | > 10 | 0.148
3 | BD55-1208 (protein) chain 1: EVQLVESGGGLVQPGGSLRLSCVASEIIVSRNYMSWVRQAPGKGLEWVSVIYSGGSTFYADSVTGRFTISRDDSKNTLFLDMNSLRPDDTALYYCARDFGDFYFDVWGQGTLVTVSS chain 2: DIVLTQSPGTLSLSPGKRATLSCRASQSVHNFLAWYQQKPGQAPRLLIYDASSRAAGIADRFSGSGSGTDFTLTISRLEPEDFAFYYCQHYGGSPRTFGQGTKVEIK | 0.00241 | 0.00267 | 0.0204 | 0.00401 | 0.0289 | 0.319 | 0.00346
4 | BD55-6286 (protein) chain 1: QVQLVQSGAEVKKPGASVKVSCKASGNSFTNNDINWVRQATGQGPEWMGWMNPDSGNTGYAHKFQGRVTMTRNTSIRTAYMELSSLTSEDTAVYYCASARARYSHGDFDNWGQGTLVTVSS chain 2: DIQMTQSPSSLSASVGDRVTLTCRASQSISTYLNWYQKKPGKAPRLLIYAASSLQSGVPSRFSGSGSGTDFTLTISSLQPEDFATYYCQQSYSTGYNFGQGTNLEIK | > 10 | > 10 | > 10 | > 10 | > 10 | > 10 | > 10
5 | BD55-6289 (protein) chain 1: QVQLQQRGAGLLRPSETLSLTCDVSGGSFSGYYWNWVRQPPGKGLEWIGDIDLAGNNYNPSLKSRVTMSIDASKNQFSLRLSSVTAADTAVYYCARAPNLGWFGPKQGAFDLWGQGTVVIVSS chain 2: not shown | > 10 | > 10 | > 10 | > 10 | > 10 | > 10 | > 10
6 | BD55-6290 (protein) chain 1: QVQLVQSGAEVRKPGASVKVSCKTSGYTFTTYYIHWVRQAPGQGLEWMGIINPSGDATSYEKKFQGSVTMTSDTSTSTVYLELSSLTSEDTAVYYCARDGAGIPAAESLDYWGQGTLVTVSS chain 2: DIQLTQSPSFLSASVGDRVTITCRASQGISSSLAWYQQKPGKAPKVLIYAASTLQSGVPSRFSGSGSGTEFTLTISSLQPEDFATYYCQQLFRYPPFTFGPGTKVHIK | > 10 | > 10 | > 10 | > 10 | > 10 | > 10 | > 10
7 | BD55-1211 (protein) chain 1: QVTLKESGPVLVKPTETLTLTCTVSGFSLSIPKMGVSWIRQPPGKALEWLADIFSNDEKSYNTSLKSRLTISKDTSKSQVVLVMTNMDPVDTASYYCARTLGDTRWMVTRYFDLWGRGTLVTVSS chain 2: SYELTQPPSVSVSPGQTARITCSGDTLPNQYTYWYQHKPGQAPVLVIYKDSERPSGIPERFSASTSGTTVTLTVSGVQAEDEADYYCQIADSSGAYFGGGTKLTVL | > 10 | > 10 | > 10 | > 10 | > 10 | > 10 | > 10
8 | BD55-6301 (protein) chain 1: QVQLVESGGGVVQPGRSLRLSCAASGFTFSTYGMHWVRQTPGKGLEWVSIISSDGSGKFYSDSVKGRFTISRDNSKNTLYLQMNSLRAEDTGLYYCAKDAPSSSRDSFPDDWGQGTLVTVSS chain 2: DIQMTQSPSSLSASVGDRVTITCRASQYITNYLNWYQQKPGKAPKLLIYAASTLRSGVPSRFSGSGSGTDFTLTINSLQPDDFATYYCLQSYTTPLTFGGGTKVEIK | > 10 | > 10 | > 10 | > 10 | > 10 | > 10 | 7.99
9 | BD55-6305 (protein) chain 1: VHLVQSGAEVKKPGSSVKVSCKASGGTLSSNAFSWVRQAPGQGLEWMGRIIPMYDKTHTAQKFQGRVTITADKSTSTAYMELSGLRSEDTAVYYCARDLVLAQRGYSGYDLFDVDAFDIWGQGTMVTVSS chain 2: QIVLTQSPGTLSLSPGERATLSCRASQSVSSNYLAWYQQKPGQAPRLLISGASSRATGIPDRFSGSGSGTDFTLTISRLEPEDFAVYYCQQYGSSPVTFGGGTKVESK | 0.1 | > 10 | > 10 | > 10 | > 10 | > 10 | 0.0524
10 | BD55-1214 (protein) chain 1: QVQLVQSGAEVKKPGASVKVSCKASEYTFSNYYIHWVRQAPGQGLEWLGIINPTGGSTTYAQNFQGRVSMTSDTSTTTVYMELSSLRSEDTAVYYCARGGIIPNTHEAFDMWGQGTMVTVSS chain 2: EIVMTQSPATLSVSPGERATLSCRASQSVSRNLGWYQQKLGQAPRLLIYGASTRATGIPARFSGSGSGTEFTLTISSLQSEDFAVYYCQQYKSWPYTSGQGTKLEIK | > 10 | > 10 | > 10 | > 10 | > 10 | > 10 | > 10
11 | BD55-6307 (protein) chain 1: QVQLVQSGAEVKKPGASVKVSCKASGYTFTNYGISWVRQAPGQGLECMGWISAHNGNTDYTQKFQSRVTMTTDTSTSTAYMELRSLRSDDTAVYYCVRDRWTYFYESSGQGLFDYWGQGTLVIVSS chain 2: DVVMTQSPLSLPVTLGQPASISCRSSQSLVYSDGNTYLNWFQQRPGQPPRRLLYMVSNRDSGVPDRFSGSGSGTAFTLKISRVEAEDVGIYYCMQGTNWPRTFGQGTKVEIK | > 10 | > 10 | > 10 | > 10 | > 10 | > 10 | > 10
12 | BD55-6314 (protein) chain 1: QAQLVQSGAEVKKPGASVRVSCKASGYRFTGYGVSWVRQAPGQGLEWMGWISAYNGDTNYAQNFQGRVTMTTDTSTSTAYMDLRSLRSDDTAVYYCARDEAVTLTYYSGSGHSPYFDYWGQGTLVTVSS chain 2: QSALTQPASVSGSPGQSITISCTRTSSDVGNYNFVSWYQQHPGKAPKLMIYEGSKRPSGVSNRFSGSKSGNTASLTISGLQAEDEADYFCCSHAGTSTLLFGGGTKLTVL | > 10 | > 10 | > 10 | > 10 | > 10 | > 10 | > 10
13 | BD55-6319 (protein) chain 1: EVQLVESGGGLVKPGGSLRLSCAASGFIFRSYSMNWVRQAPGKGLEWVSSISKSGDLKFYVDSVKGRFTISRDNAKNSLFLQMNNLRDDDRAIYYCVRDSPRGSDPVTGYSPDAFDVWGQGTMVTVSS chain 2: DIQMTQSPSSLSASVGDRVTITCRAAQSISSYLNWYQQKPGKAPKLLIYTASTLESGVPSRFSGTGSGTDFTLTISSLQPEDFATYYCQQTYVTPVYTFGQGTKLEVK | > 10 | > 10 | > 10 | > 10 | > 10 | > 10 | > 10
